We go through 1 molecule from PMC9376891 (Nature Communications, 2022).

The test has as its target T1, Rae1(31-368)-Nup98(157-213) heterodimer (human, UniProt P78406 31-368; P52948 157-213).
T1 construct: also called Rae1-Nup98; Rae1-Nup98 complex
Nature of the test: ITC. To be noted: both partners purified.

B1: MHV68-ORF10-CTT (peptide)
peptide: RAITDGGESPMEWQTL
notes: source: synthetic peptide
The term stoichiometry N denotes the number of molecules, sites or subunits per partner or assembly. On to B1, for which the “stoichiometry N” value amounted to 1.37.
